According to patent publication US20080114054A1, “Compositions and methods for reducing antimicrobial resistance of microbes” (priority 2006, published 2008):
Like-named read-outs stand apart in the source and are kept apart here.

Columns and labels:
Yerssinia = test: Inhibition zone of Yerssinia colonies exposed to composition of Table 1 in presence of antibiotics; format: cell-based; details: composition listed in Table 1 in presence of the antibiotic; for Colonies showing decrease in inhibition zone / Colonies showing increase in inhibition zone / Colonies with no change in inhibition zone: 30 colonies; for Percent colonies showing increase in inhibition zone (%): of 30 tested colonies
Brucella = format: cell-based; details: composition listed in Table 1 in presence of the antibiotic; for Colonies showing decreasing inhibition zone / Colonies showing increasing inhibition zone / Colonies with no change in inhibition zone: 30 colonies; for Percent colonies showing increase in inhibition zone (%): of 30 tested colonies

| Molecule | Colonies showing decrease in inhibition zone (Yerssinia; 1 h) | Colonies showing increase in inhibition zone (Yerssinia; 1 h) | Colonies with no change in inhibition zone (Yerssinia; 1 h) | Percent colonies showing increase in inhibition zone (%) (Yerssinia; 1 h) | Colonies showing decrease in inhibition zone (Yerssinia; 2 h) | Colonies showing increase in inhibition zone (Yerssinia; 2 h) | Colonies with no change in inhibition zone (Yerssinia; 2 h) | Percent colonies showing increase in inhibition zone (%) (Yerssinia; 2 h) | Colonies showing decreasing inhibition zone (Brucella; 1 h) | Colonies showing increasing inhibition zone (Brucella; 1 h) | Colonies with no change in inhibition zone (Brucella; 1 h) | Percent colonies showing increase in inhibition zone (%) (Brucella; 1 h) | Colonies showing decreasing inhibition zone (Brucella; 2 h) | Colonies showing increasing inhibition zone (Brucella; 2 h) | Colonies with no change in inhibition zone (Brucella; 2 h) | Percent colonies showing increase in inhibition zone (%) (Brucella; 2 h) |
| --- | --- | --- | --- | --- | --- | --- | --- | --- | --- | --- | --- | --- | --- | --- | --- | --- |
| CCn1cc(C(=O)O)c(=O)c2ccc(C)nc21 [NA, Nalidixic acid] | 5 | 18 | 7 | 60.0 | 4 | 22 | 4 | 73.3 |  |  |  |  |  |  |  |  |
| CN(C)[C@@H]1C(O)=C(C(N)=O)C(=O)[C@@]2(O)C(O)=C3C(=O)c4c(O)cccc4[C@@](C)(O)[C@H]3C[C@@H]12 [TE, Tetracycline] |  |  |  |  |  |  |  |  | 0 | 20 | 10 | 66.7 | 1 | 20 | 9 | 66.7 |
| CO[C@H]1/C=C/O[C@@]2(C)Oc3c(C)c(O)c4c(O)c(c(/C=N/N5CCN(C)CC5)c(O)c4c3C2=O)NC(=O)/C(C)=C\C=C\[C@H](C)[C@H](O)[C@@H](C)[C@@H](O)[C@@H](C)[C@H](OC(C)=O)[C@@H]1C [RA, Rifampicin] |  |  |  |  |  |  |  |  | 0 | 30 | 0 | 100 | 3 | 27 | 0 | 90.0 |
| O=C(O)c1cn(C2CC2)c2cc(N3CCNCC3)c(F)cc2c1=O [CIP, Ciprofloxacin] | 0 | 29 | 1 | 96.7 |  | 22 |  | 73.3 |  |  |  |  |  |  |  |  |
| CO/N=C(\C(=O)N[C@@H]1C(=O)N2C(C(=O)O)=C(CSc3nc(=O)c(=O)[nH]n3C)CS[C@H]12)c1csc(N)n1 [Cro, Ceftriaxone] |  |  |  |  |  |  |  |  | 0 | 27 | 3 | 90.0 | 0 | 27 | 3 | 90.0 |
| Trimethoprim-Sulfamethoaxzole [SXT] | 1 | 17 | 12 | 56.7 | 6 | 16 | 8 | 53.3 | 0 | 30 | 0 | 100 | 0 | 30 | 0 | 100 |
| CC1COc2c(N3CCN(C)CC3)c(F)cc3c(=O)c(C(=O)O)cn1c23 (centres unmarked) [OFX, Ofloxacin] | 3 | 27 | 0 | 90.0 | 5 | 24 | 1 | 80.0 |  |  |  |  |  |  |  |  |
| NC[C@H]1O[C@H](O[C@H]2[C@H](O)[C@@H](O[C@H]3O[C@H](CO)[C@@H](O)[C@H](N)[C@H]3O)[C@H](N)C[C@@H]2N)[C@H](O)[C@@H](O)[C@@H]1O [K, Kanamycin] | 2 |  | 5 | 76.7 | 4 |  | 2 | 80.0 |  |  |  |  |  |  |  |  |
